Experimental data from patent US7662860B2 (priority 2003, dated 2010).

Biological target: SARS-CoV virus 3CL protease protein (Severe acute respiratory syndrome coronavirus, UniProt P0C6X7)
Details: SPR, 3CL protease fixed on CM5 chip, cinanserin as mobile phase 62.5-2000 nM

## CN(C)CCCSc1ccccc1NC(=O)C=Cc1ccccc1 [cinanserin, 2′-(3-dimethylaminopropylthio)cinnamanilide]
  Kd: 2570 nM
